Measured values from several laboratories, pooled; numbers as filed in NIAID ChemDB.

Common to all: cytotoxicity tests; cell line: VERO; endpoint: CC50

Lines come from different laboratories, so protocols vary. CCn is the concentration with n% toxicity to the cells. Blank or dashed fields: not listed here.

structure | read by | result
CCc1nc2ccc(C)cc2n1CCCSc1ccc(OC)cc1 | luminescence | 33 µM
COc1c(N2CCNC(C)C2)c(F)cc2c(=O)c(C(=O)O)cn(C3CC3)c12 |  | >155.3 µM
COC1=C(OC)C(=O)C([C@H]2COc3c(cc(OC)c(OC)c3OC)C2)=CC1=O |  | >50 µg/mL
CCOc1ccc(-c2c3cc(O)c(=O)cc-3oc3cc(O)c(O)cc23)cc1 | MTT | >100 µM
CON1CCc2c([nH]c3ccccc23)[C@@H]1[C@@H](N)CSC |  | ≥100 µg/mL
CC12CC[C@]3(C1)[C@@H](CC[C@H]1C(C)(C)CCC[C@@]13C)CC2=O |  | 28 µg/mL
CC[C@H](C)[C@H]1OC(=O)[C@H](C(C)C)N(C)C(=O)[C@@H]([C@@H](C)CC)OC(=O)[C@H](C(C)C)N(C)C(=O)[C@@H]([C@@H](C)CC)OC(=O)[C@H](C(C)C)NC1=O | absorbance | 5.5 µM
Cc1ccc2nc(Cl)c(/C=C/C(=O)c3sccc3Cl)cc2c1 | MTS | 95.4 µM
O[C@@H](c1cc(C(F)(F)F)nc2c(C(F)(F)F)cccc12)[C@@H]1CCCCN1Cc1ccccc1 |  | 50 µM
NC1CSCON2CCc3c([nH]c4ccccc34)[C@H]12 |  | ≥4 µg/mL
CC(C)(C)NC(=O)C1c2ccccc2CCN1c1cc2c(cc1[N+](=O)[O-])c(=O)c(C(=O)O)c1n2CS1 | MTT | 61.44 µM
CCCCN(CCCC)Cc1cccc(/C(C)=N/NC(=O)c2ccncc2)c1O |  | >15.76 µM
O=C(O)c1cn2c(n1)CN(c1cc3c(cc1[N+](=O)[O-])c(=O)c(C(=O)O)c1n3CS1)CC2 | MTT | 141 µM
CCc1nc2ccc(C)cc2n1CCCCNc1cccc(Cl)c1 | luminescence | 16 µM
CCN(CC)Cc1cccc(/C(C)=N/NC(=O)c2ccncc2)c1O |  | >18.35 µM
Cc1ccc2nc(Cl)c(/C=C/C(=O)c3ccc(C)s3)cc2c1 | MTS | 69.1 µM
COCc1cn([C@H]2C[C@H](O)[C@@H](CO)O2)c(=O)[nH]c1=O |  | 512 µg/mL
CCn1cc(C(=O)O)c(=O)c2cc(F)c(N3CCN(CN4C(=O)/C(=N\c5ncc(Cc6cc(OC)c(OC)c(OC)c6)c(N)n5)c5cc(C)ccc54)C(C)C3)c(F)c21 |  | >10 µg/mL
COc1ccc(-c2c(O)ccn([C@@H]3O[C@H](COC(C)=O)[C@@H](OC(C)=O)[C@H]3OC(C)=O)c2=O)cc1OC | neutral red | >400 µM
Nc1nc2c(ncn2COC(CO)CO)c(=O)[nH]1 |  | >100 µM
Cc1c(CN2CCSCC2)cc(-c2ccccc2)n1-c1ccc(F)cc1 |  | 8 µg/mL
CCc1nc2ccc(C)cc2n1CCCCSc1ccc(OC)cc1 | luminescence | 20 µM
Cc1c(CN2CCSCC2)cc(-c2ccc(F)cc2)n1-c1ccccc1 |  | 4 µg/mL
CC1(C)CCCC2=C1CC[C@@]13CCC(C)(C[C@@]21C)C(=O)C3 |  | 35 µg/mL
Cc1ccc2nc(Cl)c(/C=C/C(=O)c3cccc4ccccc34)cc2c1 | MTS | 13 µM
CCc1cn([C@H]2C[C@H](O)[C@@H](CO)O2)c(=O)[nH]c1=O |  | 8 µg/mL
Cc1ccc2nc(Cl)c(/C=C/C(=O)c3ccc4c(c3)OCCO4)cc2c1 | MTS | 15.5 µM
NCCCNc1cc(C(F)(F)F)nc2c(C(F)(F)F)cccc12 |  | >128 µM
COc1ccc(-c2c(O)ccn([C@@H]3O[C@H](CO)[C@@H](O)[C@H]3O)c2=O)cc1 | neutral red | >200 µM
COC(=O)CC(=O)O[C@@H]1C[C@@H]2[C@@H](OC(C)=O)C[C@H]3C(C)(C)CCC[C@]3(C)[C@]23CCC1(C)C3 |  | 30 µg/mL
CCCCc1nc(Cl)c(C2C(C(=O)Nc3ccccc3F)=C(C)NC(C)=C2C(=O)Nc2ccccc2F)[nH]1 | MTT | >10 µg/mL
Cc1ccc(N2C(=O)CCC2(CN)c2ccc(OCc3ccccc3)cc2)cc1 | absorbance | 12.3 µM
CN(C)c1cc(-c2ccc(O)cc2O)on1 |  | 227 µM
CC(C)(C)n1cc(C(=O)O)c(=O)c2cc(F)c(N3CCN(Cc4ccc5c(c4)OCO5)CC3)cc21 |  | 129.8 µM
CN1c2c(-c3ccccc3)nn(CC(=O)N/N=C/c3ccccc3F)c2-c2ccccc2S1(=O)=O |  | >100 µM
CC(C)=CCc1ccc(O)c(=O)cc1C(C)C | MTT | >100 µM
Nc1ccn([C@@H]2O[C@H](CO)[C@@H](CO)[C@@H]2F)c(=O)n1 |  | ≥100 µM
Cc1cccc(-c2cc(CN3CCSCC3)c(C)n2-c2ccc(F)cc2)c1 |  | 4 µg/mL
COC(=O)CC(=O)O[C@@H]1C[C@@H]2CC[C@H]3C(C)(C)CCC[C@]3(C)[C@]23CCC1(C)C3 |  | 30 µg/mL
C/C(=N\NC(=O)c1ccncc1)c1cccc(CN(c2ccccc2)c2ccccc2)c1O |  | >14.32 µM
c1ccc(C(CNCCNCC23CC4CC(CC(C4)C2)C3)c2ccccc2)cc1 | MTS | 32 µM
O=C(O)c1cn2c(n1)CN(c1cc3c(cc1F)c(=O)c(C(=O)O)c1n3CS1)CC2 | MTT | >150.1 µM
CCCCCCC[C@H]1CC2CCC3C(C(=O)OCCCCCCCCCC4N=C(N)N5CCCC5=C4C(=O)OCCCCN=C(N)N)=C(C)NC(=N1)N23 |  | 1.8 µM
CCn1cc(C(=O)O)c(=O)c2cc(F)c(N3CCN(Cc4cccc(/C(C)=N/NC(=O)c5ccncc5)c4O)C(C)C3)c(F)c21 |  | >10.1 µM
CCn1cc(C(=O)O)c(=O)c2cc(F)c(N3CCN(CN4C(=O)/C(=N\c5ncc(Cc6cc(OC)c(OC)c(OC)c6)c(N)n5)c5cc(Br)ccc54)C(C)C3)c(F)c21 |  | >10 µg/mL
C=C(C)[C@@H]1CCc2c(O)c(O)c(=O)cc(C)c2C1 | MTT | >100 µM
Cc1cc(C)cc(N2C(=O)CCC2(C#N)c2c(Cl)cccc2Cl)c1 | absorbance | >100 µM
CN1CCN(c2cc3c(cc2F)c(=O)c(C(=O)O)cn3C(C)(C)C)CC1c1ccccc1 |  | 142.9 µM
COc1ccc(-c2c3nc(c(-c4ccc(OC)cc4)c4ccc([nH]4)c(-c4ccc(OC)cc4)c4nc(c(-c5ccc(OC)cc5)c5ccc2[nH]5)C=C4)C=C3)cc1 |  | >200 µM
COc1cc(Cc2cnc(/N=C3\C(=O)N(CN4CCN(c5cc6c(cc5F)c(=O)c(C(=O)O)cn6C5CC5)CC4)c4ccc(C)cc43)nc2N)cc(OC)c1OC |  | >10 µg/mL
Cc1c(CN2CCSCC2)cc(-c2ccc(F)cc2)n1-c1ccc(Cl)cc1 |  | 8 µg/mL
CN1c2c(-c3ccccc3)nn(CC(=O)N/N=C/c3ccc(Br)cc3)c2-c2ccccc2S1(=O)=O |  | 36.4 µM
C/C(=N\NC(=O)c1ccncc1)c1cccc(CN2CCN(C)CC2)c1O |  | >17.2 µM
Cc1cc(C)cc(N2C(=O)CCC2(CN)c2c(Cl)cccc2Cl)c1 | absorbance | >100 µM
CCN(CC)c1noc(-c2ccc(O)cc2O)c1Cc1c(N(CC)CC)noc1-c1ccc(OC)cc1O |  | 3.5 µM
COc1cc2c(cc1OC)CN(c1cc3c(cc1[N+](=O)[O-])c(=O)c(C(=O)O)c1n3CS1)CC2 | MTT | 66.56 µM
Cc1ccc(N2C(=O)CCC2(C#N)c2ccc(OCc3c(Cl)cccc3Cl)cc2)cc1 | absorbance | 52.9 µM
O=C(Cc1ccccc1)N[C@@H]1C(=O)N2C(C(=O)O)=C(CN3CCN(c4cc5c(cc4F)c(=O)c(C(=O)O)cn5C4CC4)CC3)CS[C@H]12 |  | 13.1 µM
CN1c2c(-c3ccccc3)nn(CC(=O)N/N=C/c3cccc(Cl)c3)c2-c2ccccc2S1(=O)=O |  | 78.5 µM
O=C(O)c1ccc(CN2CCCC[C@H]2[C@@H](O)c2cc(C(F)(F)F)nc3c(C(F)(F)F)cccc23)cc1 |  | 98 µM
COc1cc(Cc2cnc(/N=C3\C(=O)N(CN4CCN(c5c(F)cc6c(=O)c(C(=O)O)cn(C7CC7)c6c5F)CC4C)c4ccc(F)cc43)nc2N)cc(OC)c1OC |  | >10 µg/mL
C/C(=N\NC(=S)NO)c1ccc([N+](=O)[O-])cc1 |  | >146 µM
Cc1c(CN2CCN(C)CC2)cc(-c2ccccc2F)n1-c1ccccc1F |  | 8 µg/mL
COc1cc(Cc2cnc(/N=C3\C(=O)N(CN4CCN(c5c(F)cc6c(=O)c(C(=O)O)cn(C7CC7)c6c5OC)CC4C)c4ccc(C)cc43)nc2N)cc(OC)c1OC |  | >10 µg/mL
COc1ccc(-c2cc(N3CCCCC3)no2)c(O)c1 |  | >364 µM
CN1CCN(c2cc3c(cc2F)c(=O)c(C(=O)O)cn3C2CC2)CC1c1ccccc1 |  | >148.3 µM
COc1ccc2nc(Cl)c(/C=C/C(=O)c3cc4ccccc4o3)cc2c1 | MTS | 13.7 µM
C/C(=N\NC(=O)c1ccncc1)c1cccc(CN2CCN(c3ccc(F)cc3)CC2)c1O |  | >13.97 µM
CCCCCCCCC[C@H]1CC2CCC3C(C(=O)OCCCCCCCCCC4N=C(N)N5CCCC5=C4C(=O)OCCCCN=C(N)N)[C@@H](C)N=C(N1)N23 |  | 1.6 µM
Cc1ccccc1-n1c(-c2ccc(F)cc2)cc(CN2CCN(C)CC2)c1C |  | 2 µg/mL
FC(F)(F)c1cc(-n2ccnc2)c2cccc(C(F)(F)F)c2n1 |  | >128 µM
NCC1(c2ccccc2)CCC(=O)N1Cc1ccccc1 | absorbance | >100 µM
C/C(=N\NC(=O)c1ccncc1)c1cccc(CN2CCCC2)c1O |  | >18.47 µM
CN(C)CCNc1cc(C(F)(F)F)nc2c(C(F)(F)F)cccc12 |  | 52 µM
c1ccc(C(CCNCCNCC23CC4CC(CC(C4)C2)C3)c2ccccc2)cc1 | MTS | 13 µM
Nc1ccn(C[C@@H](CO)OCP(=O)(O)O)c(=O)n1 |  | 75 µg/mL
CC(=O)N[C@@H]1[C@@H](O)[C@H](O)[C@@H](CO)O[C@H]1N[C@H]1[C@H](O)[C@@H](C(=O)O)OC(OC2CC[C@@]3(C)C(CC[C@]4(C)C3C(=O)C=C3C5C[C@@](C)(C(=O)O)CC[C@]5(C)CC[C@]34C)C2(C)C)[C@@H]1OC1O[C@H](O)[C@@H](O)[C@H](O)[C@H]1C(=O)O |  | 500 µg/mL
FC(F)(F)c1cc(NCc2ccccn2)c2cccc(C(F)(F)F)c2n1 |  | 35 µM
CCCCc1nc(Cl)c(C2C(C(=O)Nc3ccc(F)cc3)=C(C)NC(C)=C2C(=O)Nc2ccc(F)cc2)[nH]1 | MTT | >10 µg/mL
CC(C)=CCC/C(C)=C/CNCCNC(c1ccccc1)c1ccccc1 | MTS | 21 µM
CC1(C)CCC[C@@]2(C)[C@H]1CC[C@H]1C[C@@H](O)C3(C)CC[C@]12C3 |  | 32 µg/mL
COc1ccc2nc(Cl)c(/C=C/C(=O)c3ccc4c(c3)OCCO4)cc2c1 | MTS | 12.1 µM
Cc1c(CN2CCSCC2)cc(-c2ccccc2F)n1-c1ccccc1 |  | 4 µg/mL
Nc1ncnc2c1ncn2[C@@H]1C[C@@H](O)[C@@H](O)[C@H]1O |  | 400 µg/mL
CCOc1ccc(-c2onc(N(CC)CC)c2Cc2c(N(CC)CC)noc2-c2ccc(O)cc2O)c(O)c1 |  | 17 µM
CCOc1cc(/C=N/NC(=O)Cn2nc(-c3ccccc3)c3c2-c2ccccc2S(=O)(=O)N3C)ccc1O |  | 9.2 µM
CCc1nc2ccc(C)cc2n1CCCCSc1ccc(Cl)cc1 | luminescence | 16 µM
COc1cc(Cc2cnc(/N=C3\C(=O)N(CN4CCN(c5cc6c(cc5F)c(=O)c(C(=O)O)cn6C5CC5)CC4)c4ccc(Br)cc43)nc2N)cc(OC)c1OC |  | >10 µg/mL
CC1(C)CCC[C@@]2(C)[C@H]1C[C@@H](O)C1=CC(=O)[C@@]3(C)CC[C@]12C3 |  | 28 µg/mL
NC1CCCON2CCc3c([nH]c4ccccc34)[C@H]12 |  | >400 µg/mL

The last 8 rows once more:

| structure | read by | result |
|---|---|---|
| Cc1c(CN2CCSCC2)cc(-c2ccccc2F)n1-c1ccccc1 |  | 4 µg/mL |
| Nc1ncnc2c1ncn2[C@@H]1C[C@@H](O)[C@@H](O)[C@H]1O |  | 400 µg/mL |
| CCOc1ccc(-c2onc(N(CC)CC)c2Cc2c(N(CC)CC)noc2-c2ccc(O)cc2O)c(O)c1 |  | 17 µM |
| CCOc1cc(/C=N/NC(=O)Cn2nc(-c3ccccc3)c3c2-c2ccccc2S(=O)(=O)N3C)ccc1O |  | 9.2 µM |
| CCc1nc2ccc(C)cc2n1CCCCSc1ccc(Cl)cc1 | luminescence | 16 µM |
| COc1cc(Cc2cnc(/N=C3\C(=O)N(CN4CCN(c5cc6c(cc5F)c(=O)c(C(=O)O)cn6C5CC5)CC4)c4ccc(Br)cc43)nc2N)cc(OC)c1OC |  | >10 µg/mL |
| CC1(C)CCC[C@@]2(C)[C@H]1C[C@@H](O)C1=CC(=O)[C@@]3(C)CC[C@]12C3 |  | 28 µg/mL |
| NC1CCCON2CCc3c([nH]c4ccccc34)[C@H]12 |  | >400 µg/mL |